Assay results taken from US7803788B2, “Prodrugs of phosphonate nucoleotide analogues” (Gilead Sciences, Inc., priority 2000, dated 2010).

Tested on: HIV-1
Experiment: In vitro anti-HIV-1 activity in MT-2 cells
Details: read-out: HIV IC50; Table 5 (selected IC50 data from Table 4)

CC(C)OC(=O)OCOP(=O)(CO[C@H](C)Cn1cnc2c(N)ncnc21)OCOC(=O)OC(C)C [compound 7]
IC50: 50 nM
